Test results: US20230045284A1
Values joined by “and” are separate entries in the source; they are usually repeats but may differ in a detail not shown here. Equal values may be shown once.

Molecular target: Total cellular Ras (all isoforms KRas, HRas and NRas, endogenous, in human cell lines)
Assay: cell-based or functional assay

## RRSP-DTB (RRSP fused via a (G4S)2 linker to diphtheria toxin residues 186-535, DTT-DTR) (from UniProt P00588 186-535) (enzyme)
  concentration inhibiting cell proliferation, KRAS-mutant PDAC cell lines: 63 picomolar and 181 picomolar
